Results of unrelated studies side by side (data: NIAID ChemDB).

Common to all: tests in culture; agent: HIV-1; read by: cytopathic effect / MTT; endpoint: EC50

ECn: concentration that inhibits the pathogen or its effect by n%.

compound | mutations | strain | cells | value
C1CNCCNCCCN[C@H]([C@H]2CNCCCNCCNCCCN2)CNC1 |  | IIIB | MT-4 | 0.21 µg/mL
N/C(=N/O)c1cc(CN2C(=O)N[C@H](CCc3ccccc3)[C@@H](O)[C@H]2Cc2ccccc2)ccc1F |  | RF | MT-2 | <3.78 µM
CNc1cccc2c1nc(-c1c(F)cccc1F)n2Cc1c(F)cccc1F | RT-Y181C |  | MT-4 | 0.26 µM
C/C(C#N)=C/c1cc(C)c(Nc2ccnc(Nc3ccc(C#N)cc3)n2)c(C)c1 | RT-L100I |  | MT-4 | 0.00316 µM
CO[C@H]1O[C@@H](n2ccc(=O)[nH]c2=O)C[C@@H]1N=[N+]=[N-] |  | LAV-Bru | CEM-C113 + CEM/C113 | <0.2 µM
NC(=O)c1cccc(CN2C(=O)N(Cc3cccc(N)c3)[C@H](Cc3ccccc3)[C@H](O)[C@H]2CCc2ccccc2)c1 |  | RF | MT-2 | <0.024 µM
Cc1ccnc2c1NC(=O)c1cccnc1N2C1CC1 | RT-Y181C |  | MT-4 | 0.6 µM
CCCCCCCC/C=C\CCCCCCCC(=O)OCC(COC(=O)CCCCCCC/C=C\CCCCCCCC)OC(=O)CCC(=O)O[C@H](CN1C[C@H]2CCCC[C@H]2C[C@H]1C(=O)NC(C)(C)C)[C@H](Cc1ccccc1)NC(=O)[C@H](CC(N)=O)NC(=O)c1ccc2ccccc2n1 |  | IIIB | MT-4 | 1.7 µM
NC(N)=NCCC[C@H]1/C=C/[C@@H](Cc2ccc3ccccc3c2)C(=O)NCC(=O)N[C@H](Cc2ccc(O)cc2)C(=O)N[C@@H](CCCN=C(N)N)C(=O)N1 |  | IIIB | MT-4 | 2.4 µM
O=c1c2cccn2ccn1CCNC(=S)Nc1ccc(Br)cn1 |  | IIIB | C8166 | 0.041 µM
O=c1ccc(-c2cccc(C(F)(F)F)c2)c(O)c(O)c1O |  | IIIB | MT-4 | >3 µM
Cc1ccc(S(=O)(=O)c2c(C(=O)NNCCO)[nH]c3ccc(Cl)cc23)c(C)c1 | RT-K103N Y181C |  | MT-4 | 20 µM
Fc1cccc(F)c1Cn1c(-c2c(F)cccc2F)nc2c(Br)cccc21 | RT-K103N |  | MT-4 | 10.2 µM
N/C(=N/O)c1cc(CN2C(=O)N(Cc3ccc(F)c(/C(N)=N\O)c3)[C@H](Cc3ccccc3)[C@H](O)[C@H]2CCc2ccccc2)ccc1F |  | RF | MT-2 | <0.051 µM
COc1ccc(Cc2nccc3cc(OC)c(OC)cc23)cc1OC |  | IIIB | MT-4 | >6 µg/mL
Nc1cccc(CN2C(=O)N(Cc3ccc4[nH]ncc4c3)[C@H](Cc3ccccc3)[C@H](O)[C@H]2CCc2ccccc2)c1 |  | RF | MT-2 | <0.013 µM
C[C@H](CCC(=O)NCCS(=O)(=O)O)[C@H]1CC[C@H]2[C@@H]3CC[C@@H]4C[C@H](O)CC[C@]4(C)C3CC[C@]12C |  | IIIB | MT-4 | 102 µg/mL
Cc1c(O)cccc1C(=O)N[C@@H](CSc1ccccc1)[C@@H](CN1C[C@H]2CCCC[C@H]2C[C@H]1C(=O)NC(C)(C)C)OC(=O)CCCCNC(=O)O[C@H]1[C@@H](C2COC(C)(C)O2)OC2OC(C)(C)O[C@H]21.O=C(O)C(F)(F)F.O=C(O)C(F)(F)F |  | IIIB | MT-4 | >10 µM
Cc1cc(CC#N)cc(C)c1Nc1ccnc(Nc2ccc(C#N)cc2)n1 | RT-Y188L |  | MT-4 | 0.251 µM
Fc1cccc(F)c1C1OCc2nc3ccccc3n21 | RT-V106A | Nevirapine-resistant (RT V106A) | CEM | >13.85 µM
O=c1c2cccn2c2cc(Cl)c(Cl)cc2n1CCNC(=S)Nc1ccc(Br)cn1 |  | IIIB | C8166 | >2 µM
CCCCCCCCCCOCCC(=O)O |  |  | CEM | 18 µM
NC(=O)c1cccc(CN2C(=O)N(Cc3cccc(C(N)=O)c3)[C@H](Cc3ccc(F)c(F)c3)[C@H](O)[C@H]2CCc2ccc(F)c(F)c2)c1 |  | RF | MT-2 | <0.09 µM
C1CNCCNCCCN[C@@H]([C@H]2CNCCCNCCNCCCN2)CNC1 |  | IIIB | MT-4 | 0.12 µg/mL
c1cc(CN2CCCNCCNCCCNCC2)ccc1CN1CCCNCCNCCCNCC1 |  | NL4 Suc-HSA-resistant | MT-4 | 0.01 µg/mL
NC(=O)c1cccc(CN2C(=O)N(Cc3cccc(C(N)=O)c3)[C@H](Cc3ccccc3)[C@H](O)[C@H]2CCc2ccccc2)c1 |  | RF | MT-2 | <0.035 µM
CCCOCCCCCCCCCC(=O)O |  |  | CEM | <40 µM
COc1ccc(/C=C/NC(=O)Nc2ccc(Cl)cn2)cc1OC |  | IIIB | CEM + CEM-SS | 4.8 µM
CC(=O)Nc1cccc2c1nc(-c1c(F)cccc1F)n2Cc1c(F)cccc1F | RT-K101E |  | MT-4 | >20 µM
Nc1ccn([C@@H]2O[C@H](CO)C[C@@H]2F)c(=O)n1 |  | IIIB | MT-4 | 0.53 µg/mL
O=c1c2cccn2c2cccc(F)c2n1CCNC(=S)Nc1ccc(Br)cn1 |  | IIIB | CEM + CEM-SS | 0.00047 µM
O=c1ccc(-c2ccc(C(F)(F)F)cc2)c(O)c(O)c1O |  | IIIB | MT-4 | >5 µM
CCOP(=O)(N[C@@H](C)C(=O)OC)OC[C@H]1O[C@@H](n2cc(C)c(=O)[nH]c2=O)C[C@@H]1N=[N+]=[N-] |  | IIIB | MT-4 | 0.93 µg/mL
O=c1ccccc(-c2cncnc2)c1O |  | IIIB | MT-4 | >29 µM
COC(=O)C(Cc1ccccc1)NC(=O)[C@@H](NC(=O)[C@@H](C[C@H](O)[C@H](CC1CCCCC1)NC(=O)[C@@H](NC(=O)[C@H](Cc1ccccc1)CS(=O)(=O)C(C)(C)C)C(C)C)C(C)C)C(C)C |  | IIIB | MT-4 | 0.003 µM
O=C(O)C1=CC(=C(c2ccc(O)c(C(=O)O)c2)c2ccc(O)c(C(=O)O)c2)C=CC1=O |  | IIIB | MT-4 | 0.82 µg/mL
CCCCCCCC/C=C\CCCCCCCC(=O)O[C@@H]1Cc2ccccc2[C@@H]1NC(=O)[C@H](Cc1ccccc1)C[C@H](O)CN1CCN(Cc2cccnc2)C[C@H]1C(=O)NC(C)(C)C |  | IIIB | MT-4 | 0.25 µM
Cc1ccnc2c1NC(=O)c1cccnc1N2C1CC1 |  | IIIB | MT-4 | 0.04 µM
CC(C)(C)NC(=O)[C@@H]1C[C@@H]2CCCC[C@@H]2CN1C[C@@H](OC(=O)[C@H](Cc1ccccc1)NC(=O)OC(C)(C)C)[C@H](Cc1ccccc1)NC(=O)[C@H](CC(N)=O)NC(=O)c1ccc2ccccc2n1 |  | IIIB | MT-4 | 0.197 µM
CC(C)(C)NC(=O)[C@@H]1CC2CCCCC2CN1C[C@@H](OC(=O)CCC(=O)O[C@H]1[C@@H](C2COC(C)(C)O2)OC2OC(C)(C)O[C@H]21)[C@H](Cc1ccccc1)NC(=O)[C@H](CC(N)=O)NC(=O)c1ccc2ccccc2n1.O=C(O)C(F)(F)F.O=C(O)C(F)(F)F |  | IIIB | MT-4 | 0.109 µM
Nc1ccn([C@H]2CC[C@@H](CO)O2)c(=O)n1 |  | G910-6 | MT-2 | ~0.32 µg/mL
NC(=O)c1cc(CN2C(=O)N(Cc3ccc(F)c(C(N)=O)c3)[C@H](Cc3ccccc3)[C@H](O)[C@H]2CCc2ccccc2)ccc1F |  | RF | MT-2 | <0.49 µM
CC(C)(C)NC(=O)[C@@H]1C[C@@H]2CCCC[C@@H]2CN1C[C@@H](OC(=O)CCCCO[C@@H]1[C@@H](O)[C@@H](O)O[C@H](CO)[C@H]1O)[C@H](Cc1ccccc1)NC(=O)[C@H](CC(N)=O)NC(=O)c1ccc2ccccc2n1 |  | LAI | CEM + CEM-SS | <0.011 µM
CC(C)(C)OC(=O)[C@@H]1CCCN1C[C@@H](O)[C@H](Cc1ccccc1)NC(=O)[C@H](CC(N)=O)NC(=O)OCc1ccccc1 |  | IIIB | MT-4 | 1.7 µg/mL
CN=C1CN=C(c2ccc[nH]2)c2cc(Cl)ccc2N1 |  | IIIB | MOLT-4 | ≤0.3 µM
CC(C)Nc1cccnc1N1CCN(C(=O)c2cc3cc(NS(C)(=O)=O)ccc3[nH]2)CC1 |  | IIIB | MT-4 | 0.01 µM
O=c1[nH]cnc2c1ncn2[C@H]1CC[C@@H](CO)O1 |  | IIIB WT | MT-4 | 1.9 µM
O=[N+]([O-])c1cncn1CCOC(c1ccccc1)c1ccccc1 |  | IIIB | MT-4 | 100 µM
O=c1[nH]cnc2c1ncn2[C@H]1CC[C@@H](CO)O1 |  |  | CEM | 5 µM
O[C@H]1[C@H](O)[C@@H](O)CN2CC[C@H](O)[C@H]12 |  | IIIB | MT-4 | 126 µg/mL
CCCCCCCCOCCCCC(=O)O |  |  | CEM | >40 µM
Cc1cn([C@H]2C[C@H](N=[N+]=[N-])[C@@H](CO)O2)c(=O)[nH]c1=O |  | IIIB | C8166 | 0.4 µM
COC(=O)c1cccc2c1nc(-c1c(F)cccc1F)n2Cc1c(F)cccc1F | RT-Y181C |  | MT-4 | 8.4 µM
Cc1cn([C@H]2C[C@H](N=[N+]=[N-])[C@@H](CO)O2)c(=O)[nH]c1=O |  | IIIB | MT-4 | 0.0042 µg/mL
CC(C)=CCN1Cc2cc(Cl)cc3[nH]c(=S)n(c23)C[C@@H]1C |  | IIIB | CEM + CEM-SS | 0.067 µM
CC(C)(C)NC(=O)[C@@H]1CC2CCCCC2CN1C[C@@H](OC(=O)CCCCNC(=O)O[C@H]1[C@@H](C2COC(C)(C)O2)OC2OC(C)(C)O[C@H]21)[C@H](Cc1ccccc1)NC(=O)[C@H](CC(N)=O)NC(=O)c1ccc2ccccc2n1.O=C(O)C(F)(F)F.O=C(O)C(F)(F)F.O=C(O)C(F)(F)F.O=C(O)C(F)(F)F |  | LAI | CEM + CEM-SS | 3.6 µM
O=c1ccc(-c2ccsc2)c(O)c(O)c1O |  | IIIB | MT-4 | >3 µM
COCCCCCCCCCCCC(=O)O |  |  | CEM | 4 µM
Cc1cc(SC2=C(O)C[C@](CCc3ccc(N)cc3)(C(C)C)OC2=O)c(C(C)(C)C)cc1CO |  | IIIB | MT-4 | >250 µg/mL

For reference, 4 entries again:

compound | mutations | strain | cells | value
O=c1c2cccn2c2cc(Cl)c(Cl)cc2n1CCNC(=S)Nc1ccc(Br)cn1 |  | IIIB | C8166 | >2 µM
Cc1cc(SC2=C(O)C[C@](CCc3ccc(N)cc3)(C(C)C)OC2=O)c(C(C)(C)C)cc1CO |  | IIIB | MT-4 | >250 µg/mL
Nc1ccn([C@H]2CC[C@@H](CO)O2)c(=O)n1 |  | G910-6 | MT-2 | ~0.32 µg/mL
CCOP(=O)(N[C@@H](C)C(=O)OC)OC[C@H]1O[C@@H](n2cc(C)c(=O)[nH]c2=O)C[C@@H]1N=[N+]=[N-] |  | IIIB | MT-4 | 0.93 µg/mL

An empty or dashed field is not shown. Conditions beyond the fields shown may differ between rows.